A mixed list of measured activities; the numbers were collected in NIAID ChemDB.

Shared fields: tests in culture; species: Mycobacterium avium intracellulare; measure: MIC

Neighbouring rows are from separate reports.

compound,strain or isolate,result
CC1(C)S[C@@H]2[C@H](NC(=O)[C@H](C(=O)[O-])c3ccsc3)C(=O)N2[C@H]1C(=O)[O-].[Na+].[Na+],CIPT 140310030,50 µg/mL
NNC(=O)c1ccncc1,N-475 (HIV-),2 µg/mL
CC(C)N=c1cc2n(-c3ccc(Cl)cc3)c3ccccc3nc-2cc1Nc1ccc(Cl)cc1,P2,5 µg/mL
CC[C@H]1OC(=O)[C@H](C)[C@@H](O[C@H]2C[C@@](C)(OC)[C@@H](OC(C)=O)[C@H](C)O2)[C@H](C)[C@@H](O[C@@H]2O[C@H](C)C[C@H](N(C)C)[C@H]2OC(=O)NNCCCCc2ccccc2)C(C)(O)C[C@@H](C)/C(=N\OCCCC2CCCCC2)[C@H](C)[C@@H](O)[C@]1(C)O,20066 (clarithromycin-susceptible),1.56 µg/mL
CC[C@H]1OC(=O)[C@H](C)[C@@H](O[C@H]2C[C@@](C)(OC)[C@@H](O)[C@H](C)O2)[C@H](C)[C@@H](O[C@@H]2O[C@H](C)C[C@H](N(C)C)[C@H]2O)[C@](C)(OC)C[C@@H](C)C(=O)[C@H](C)[C@@H](O)[C@]1(C)O,N-809 (HIV-),0.25 µg/mL
CCCCCCCCCCCCCCCCO/N=C1\[C@H](C)CC(C)(O)[C@H](O[C@@H]2O[C@H](C)C[C@H](N(C)C)[C@H]2O)[C@@H](C)[C@H](OC2C[C@@](C)(OC)[C@@H](O)[C@H](C)O2)[C@@H](C)C(=O)O[C@H](CC)[C@@](C)(O)[C@H](O)[C@H]1C,20066 (clarithromycin-susceptible),>50 µg/mL
CO[C@H]1/C=C/O[C@@]2(C)Oc3c(C)c(O)c4c(O)c(c5c(c4c3C2=O)NC2(CCN(CC(C)C)CC2)N=5)=NC(=O)/C(C)=C\C=C\[C@H](C)[C@H](O)[C@@H](C)[C@@H](O)[C@@H](C)[C@H](OC(C)=O)[C@@H]1C,CIPT 140310030,0.1 µg/mL
CCCCCCC(=O)O[C@H]1[C@H](C)[C@@H](O[C@@H]2O[C@H](C)C[C@H](N(C)C)[C@H]2O)C(C)(O)C[C@@H](C)/C(=N\OCCCOc2ccccc2)[C@H](C)[C@@H](O)[C@](C)(O)[C@@H](CC)OC(=O)[C@@H]1C,20066 (clarithromycin-susceptible),3.13 µg/mL
NC[C@H]1O[C@H](O[C@H]2[C@H](O)[C@@H](O[C@H]3O[C@H](CO)[C@@H](O)[C@H](N)[C@H]3O)[C@H](N)C[C@@H]2N)[C@H](O)[C@@H](O)[C@@H]1O,CIPT 140310021,10 µg/mL
CC[C@H]1OC(=O)[C@H](C)[C@@H](OC2C[C@@](C)(OC)[C@@H](OC(=O)CCCc3ccccc3)[C@H](C)O2)[C@H](C)[C@@H](O[C@@H]2O[C@H](C)C[C@H](N(C)C)[C@H]2O)C(C)(O)C[C@@H](C)/C(=N\OCCCOc2ccccc2)[C@H](C)[C@@H](O)[C@]1(C)O,20066 (clarithromycin-susceptible),0.78 µg/mL
CO[C@H]1/C=C/O[C@@]2(C)Oc3c(C)c(O)c4c(O)c(c5c(c4c3C2=O)NC2(CCN(CC(C)C)CC2)N=5)=NC(=O)/C(C)=C\C=C\[C@H](C)[C@H](O)[C@@H](C)[C@@H](O)[C@@H](C)[C@H](OC(C)=O)[C@@H]1C,N-809 (HIV-),0.2 µg/mL
CO[C@H]1/C=C/O[C@@]2(C)Oc3c(C)c(O)c4c(O)c(c5c(c4c3C2=O)NC2(CCN(CC(C)C)CC2)N=5)=NC(=O)/C(C)=C\C=C\[C@H](C)[C@H](O)[C@@H](C)[C@@H](O)[C@@H](C)[C@H](OC(C)=O)[C@@H]1C,74,0.125 µg/mL
CN[C@@H]1[C@H](O[C@H]2[C@H](O[C@H]3[C@H](O)[C@@H](O)[C@H](N=C(N)N)[C@@H](O)[C@@H]3N=C(N)N)O[C@@H](C)[C@]2(O)C=O)O[C@@H](CO)[C@H](O)[C@H]1O,CIPT 140310021,>50 µg/mL
CO[C@H]1/C=C/O[C@@]2(C)Oc3c(C)c(O)c4c(=O)c(c5oc6cc(N7CCN(CC(C)C)CC7)cc(=O)c6nc5c4c3=C2O)NC(=O)/C(C)=C\C=C\[C@H](C)[C@H](O)[C@@H](C)[C@@H](O)[C@@H](C)[C@H](OC(C)=O)[C@@H]1C,N-551 (HIV-),0.0313 µg/mL
CCCCCCCCCCCCC(=O)O[C@H]1[C@H](C)[C@@H](O[C@@H]2O[C@H](C)C[C@H](N(C)C)[C@H]2O)C(C)(O)C[C@@H](C)/C(=N\OCCCOc2ccccc2)[C@H](C)[C@@H](O)[C@](C)(O)[C@@H](CC)OC(=O)[C@@H]1C,20066 (clarithromycin-susceptible),>50 µg/mL

For reference, 2 entries again:

compound | strain or isolate | result
CO[C@H]1/C=C/O[C@@]2(C)Oc3c(C)c(O)c4c(=O)c(c5oc6cc(N7CCN(CC(C)C)CC7)cc(=O)c6nc5c4c3=C2O)NC(=O)/C(C)=C\C=C\[C@H](C)[C@H](O)[C@@H](C)[C@@H](O)[C@@H](C)[C@H](OC(C)=O)[C@@H]1C | N-551 (HIV-) | 0.0313 µg/mL
CC[C@H]1OC(=O)[C@H](C)[C@@H](OC2C[C@@](C)(OC)[C@@H](OC(=O)CCCc3ccccc3)[C@H](C)O2)[C@H](C)[C@@H](O[C@@H]2O[C@H](C)C[C@H](N(C)C)[C@H]2O)C(C)(O)C[C@@H](C)/C(=N\OCCCOc2ccccc2)[C@H](C)[C@@H](O)[C@]1(C)O | 20066 (clarithromycin-susceptible) | 0.78 µg/mL